Pooled drug test results. Numbers come from NIAID ChemDB, via PubChem.

All rows: whole-cell or culture tests; species: HIV-1; cells: PBMC; read-out: EC50

ECn is the concentration giving n% inhibition of infection, replication or growth.

{"structure": "C=CCN(C(=O)OCc1ccc2c(c1)OCO2)C1CCN(C[C@H]2CN(C(=O)C3CCCC3)C[C@]2(O)c2ccccc2)CC1", "method": "p24", "result": ">0.1 µM"}
{"structure": "Cc1cn([C@H]2C[C@H](N=[N+]=[N-])[C@@H](CO)O2)c(=O)[nH]c1=O", "strain or isolate": "CLADE D", "method": "cytopathic effect / XTT", "result": "0.001 µM"}
{"structure": "Cc1cc(C#N)cc(C)c1Oc1nc(Nc2ccc(C#N)cc2)nc(N)c1Br", "strain or isolate": "97ZA009", "method": "absorbance", "result": "0.0005 µM"}
{"structure": "S=C(NCCc1ccccn1)Nc1ccc(Br)cn1", "strain or isolate": "IIIB", "method": "p24", "result": "0.007 µM"}
{"structure": "CC(C)(C)NC(=O)[C@@H]1C[C@@H]2CCCC[C@@H]2CN1C[C@@H](O)[C@H](Cc1ccccc1)NC(=O)[C@H](CC(N)=O)NC(=O)c1ccc2ccccc2n1", "strain or isolate": "BCF01", "mutations": "PR-L10V K20C M36I L63T I64V A71V", "result": "0.0204 µM"}
{"structure": "Nc1nc(=O)n([C@@H]2CC[C@H](CO)O2)cc1F", "strain or isolate": "LAV", "method": "RT activity", "result": "0.021 µM"}
{"structure": "C=CCN(C(=O)Nc1ccc(Cl)cc1)C1CCN(C[C@H]2CN(C(=O)C3CCCC3)C[C@]2(O)c2ccccc2)CC1", "method": "p24", "result": ">0.1 µM"}
{"structure": "CO[P@](=O)(c1cc(C)cc(/C=C/C#N)c1)c1c(C(N)=O)[nH]c2ccc(Cl)cc12", "strain or isolate": "WT (NL4-3)", "result": "0.0015 µM"}
{"structure": "c1cc(CN2CCCNCCNCCCNCC2)ccc1CN1CCCNCCNCCCNCC1", "strain or isolate": "SW38 CLADE C R5", "method": "p24", "result": ">0.5 µM"}
{"structure": "Cc1ccnc2c1NC(=O)c1cccnc1N2C1CC1", "strain or isolate": "CLADE C", "method": "RT activity", "result": "0.05 µM"}
{"structure": "C[C@@H](CNC(=S)Nc1ccc(Br)cn1)c1ccccc1", "strain or isolate": "NNRTI-resistant (RT Y181C) A17", "mutations": "RT-Y181C", "method": "p24", "result": "0.67 µM"}
{"structure": "S=C(NCCc1ccccn1)Nc1ccc(Br)cn1", "strain or isolate": "A17", "mutations": "RT-K103N Y181C", "result": ">100 µM"}
{"structure": "C[C@H](CNC(=S)Nc1ccc(Cl)cn1)C1CCCCC1", "strain or isolate": "IIIB", "method": "p24", "result": ">1 µM"}
{"structure": "Nc1ccn([C@H]2CC[C@@H](CO)O2)c(=O)n1", "mutations": "RT-L74V T215Y K219Q", "method": "p24", "result": "0.32 µM"}
{"structure": "CCC[C@@]1(CCc2ccccc2)CC(O)=C([C@H](CC)c2cccc(NS(=O)(=O)c3ccc(C(F)(F)F)cn3)c2)C(=O)O1", "strain or isolate": "410 clinical isolates AZT-resistant", "method": "p24", "result": "<0.04 µM"}
{"structure": "S=C(NCCC1=CCCCC1)Nc1ccccn1", "strain or isolate": "IIIB", "result": "0.03 µM"}
{"structure": "COc1ccc(S(=O)(=O)N(CC(C)C)C[C@@H](O)[C@H](Cc2ccccc2)NC(=O)O[C@H]2CO[C@H]3OCC[C@H]32)cc1", "strain or isolate": "Clinical isolate", "mutations": "PR-L10I I15V K20R M36I M46L I54V K55R I62V L63P K70Q V82A L89M", "method": "p24", "result": "0.0013 µM"}
{"structure": "O=C(C1CCCC1)N1C[C@H](CN2CCC(N(CC3CC3)C(=O)OCc3ccc([N+](=O)[O-])cc3)CC2)[C@@](O)(c2ccccc2)C1", "method": "p24", "result": "0.006–0.05 µM"}
{"structure": "CCCc1cc(=O)oc2c3c(c4c(c12)OC(C)(C)C=C4)O[C@@H](C)[C@H](C)[C@@H]3O", "strain or isolate": "CLADE B", "method": "RT activity", "result": "0.2 µM"}
{"structure": "C[C@H](NC(=O)[C@H](CCCN=C(N)N)NC(=O)c1ccc(CNCc2ccccn2)cc1)c1cccc2ccccc12", "strain or isolate": "YU-1 R5 clinical isolate", "method": "p24", "result": ">10 µM"}
{"structure": "Cc1c(O)cccc1C(=O)N[C@@H](CSc1ccccc1)[C@H](O)CN1C[C@H]2CCCC[C@H]2C[C@H]1C(=O)NC(C)(C)C", "strain or isolate": "Clinical isolate", "mutations": "PR-L10I V11I T12E I15V L19I R41K M46L L63 A71T V82A L90M", "method": "p24", "result": "0.09 µM"}
{"structure": "O=c1[nH]cnc2c1ncn2[C@H]1CC[C@@H](CO)O1", "strain or isolate": "8564 CLADE D CLADE D", "method": "p24", "result": "1.13 µM"}
{"structure": "Cc1ccnc2c1NC(=O)c1cccnc1N2C1CC1", "strain or isolate": "RT-MDR(RT-V106A)", "mutations": "RT-V106A", "result": "5 µM"}
{"structure": "CC(C)(C)NC(=O)[C@@H]1C[C@@H]2CCCC[C@@H]2CN1C[C@@H](O)[C@H](Cc1ccccc1)NC(=O)[C@H](CC(N)=O)NC(=O)c1ccc2ccccc2n1", "strain or isolate": "Clinical isolate", "mutations": "PR-L10I I15V E35D N37E K45R I54V L63P A71V V82T L90M I93L C95F", "method": "p24", "result": "0.036 µM"}
{"structure": "Cc1cn([C@H]2C[C@H](N=[N+]=[N-])[C@@H](CO)O2)c(=O)[nH]c1=O", "strain or isolate": "BCF02", "mutations": "RT-A98G V106I Y181C", "result": "<0.01 µM"}
{"structure": "O=c1[nH]cnc2c1ncn2[C@H]1CC[C@@H](CO)O1", "strain or isolate": "Isolate 6856", "method": "p24", "result": "1.87 µM"}
{"structure": "Cc1cccc(NC(=S)NC[C@H](C)c2ccccc2)n1", "strain or isolate": "IIIB", "method": "p24", "result": "0.04 µM"}
{"structure": "O=C1N(Cc2ccc(CO)cc2)[C@H](Cc2ccccc2)[C@H](O)[C@@H](O)[C@@H](Cc2ccccc2)N1Cc1ccc(CO)cc1", "strain or isolate": "Clinical isolate C", "method": "p24", "result": "0.11 µM"}
{"structure": "Cc1cc(/C=C/C#N)cc(C)c1Nc1ccnc(Nc2ccc(C#N)cc2)n1", "strain or isolate": "92BR014", "method": "absorbance", "result": "0.0024 µM"}
{"structure": "CCc1cc(NCc2nc3c(Cl)ccc(Cl)c3o2)c(=O)[nH]c1C", "strain or isolate": "Clinical isolate (RT M41L D67N T215Y)", "mutations": "RT-M41L D67N T215Y", "method": "p24", "result": "<0.8 µM"}
{"structure": "CC(=O)N1CCC(C(=O)N(CCCN2CCC(Cc3ccc(C(N)=O)cc3)CC2)c2ccc(C)c(Cl)c2)CC1", "strain or isolate": "CTV R5 clinical isolate", "method": "p24", "result": "0.00072 µM"}
{"structure": "Cc1csc(NC(=S)NC[C@H](C)c2ccccc2)n1", "strain or isolate": "NNRTI-resistant (RT Y181C) A17", "mutations": "RT-Y181C", "method": "p24", "result": "6.85 µM"}
{"structure": "Cc1cn([C@H]2C[C@H](N=[N+]=[N-])[C@@H](CO)O2)c(=O)[nH]c1=O", "strain or isolate": "WEJO", "method": "RT activity", "result": "0.02 µM"}
{"structure": "Cc1cc(=O)c2ccc(N=C=S)cc2o1", "strain or isolate": "NL4-3", "method": "p24 / ELISA", "result": "0.154 µM"}
{"structure": "O=C(C1CCCC1)N1C[C@H](N2CCC(N(CC3CC3)C(=O)OCc3ccc([N+](=O)[O-])cc3)CC2)[C@@](O)(c2ccccc2)C1", "method": "p24 / ELISA", "result": "<0.05 µM"}
{"structure": "Cc1csc(NC(=S)N[C@H](C)c2ccccc2)n1", "strain or isolate": "IIIB", "method": "p24", "result": "<0.001 µM"}
{"structure": "Cc1cn([C@H]2C[C@H](N=[N+]=[N-])[C@@H](CO)O2)c(=O)[nH]c1=O", "strain or isolate": "G780-1 Clinical isolate ZDV-resistant", "mutations": "RT-M41L D67N K70R T215F K219Q", "method": "p24", "result": ">3.2 µM"}
{"structure": "C#C[C@]1(CO)O[C@@H](n2cnc3c(N)nc(F)nc32)C[C@@H]1O", "strain or isolate": "Clinical isolate", "mutations": "A114S", "method": "single cycle / fluorescence", "result": "0.00044 µM"}
{"structure": "CCO/N=C(\\c1ccc(Br)cc1)C1CCN(C2(C)CCN(C(=O)c3c(C)cc[n+]([O-])c3C)CC2)CC1", "strain or isolate": "93MW959 R5 CLADE C", "method": "p24", "result": "0.0011 µM"}
{"structure": "CC(C)CN(C[C@@H](O)[C@H](Cc1ccccc1)NC(=O)O[C@@H]1[C@@H]2CCCO[C@@H]2O[C@H]1C)S(=O)(=O)c1ccc(N)cc1", "strain or isolate": "PR-L63P ERS104pre", "method": "p24", "result": "0.024 µM"}
{"structure": "Cc1cn([C@H]2C[C@H](N=[N+]=[N-])[C@@H](CO)O2)c(=O)[nH]c1=O", "strain or isolate": "HXB2 WT", "method": "p24", "result": "0.002 µM"}
{"structure": "C[C@H](Cn1cnc2c(N)ncnc21)OCP(=O)(O)O", "strain or isolate": "62J", "method": "p24", "result": "0.1 µM"}
{"structure": "Cc1ncnc(C)c1C(=O)N1CCC(C)(N2CCN([C@@H](Cc3ccccc3)c3ccc(C(F)(F)F)cc3)[C@@H](C)C2)CC1", "strain or isolate": "301657 Clinical isolates", "result": "<0.0006 µM"}
{"structure": "Cc1ccnc2c1NC(=O)c1cccnc1N2C1CC1", "strain or isolate": "NRTI resistant (RT Y181C) A17", "mutations": "RT-Y181C", "method": "p24", "result": ">100 µM"}
{"structure": "COC(=O)[C@H](C)NP(=O)(OC[C@@H]1C=C[C@H](n2cc(C)c(=O)[nH]c2=O)O1)Oc1ccc(Br)cc1", "strain or isolate": "IIIB", "method": "p24", "result": "0.001 µM"}
{"structure": "CCCc1cc(=O)oc2c3c(c4c(c12)OC(C)(C)C=C4)O[C@H](C)[C@@H](C)[C@@H]3O", "strain or isolate": "CLADE C", "method": "RT activity", "result": "0.02 µM"}
{"structure": "C=CCN(C(=O)NCc1ccc(F)cc1)C1CCN(C[C@H]2CN(C(=O)C3CCCC3)C[C@]2(O)c2ccccc2)CC1", "method": "p24", "result": "0.006–0.05 µM"}
{"structure": "Nc1ccn([C@@H]2C[C@@H](O)[C@H](CO)O2)c(=O)n1", "strain or isolate": "LAV", "method": "RT activity", "result": ">200 µM"}
{"structure": "CN[C@@H]1[C@H](O[C@@H]2OC[C@@H](O)[C@H](O)[C@H]2O)[C@@H](O)[C@H](O[C@H]2c3cc(C)c(C(=O)N[C@H](C)C(=O)O)c(O)c3-c3c(cc4c(c3O)C(=O)c3cc(OC)cc(O)c3C4=O)[C@@H]2O)O[C@@H]1C", "strain or isolate": "US2 R5 CLADE B", "method": "p24", "result": "2.3 µg/mL"}
{"structure": "CC(C)CN(C[C@@H](O)[C@H](Cc1ccccc1)NC(=O)O[C@H]1[C@H]2CCCO[C@H]2O[C@@H]1C)S(=O)(=O)c1ccc(N)cc1", "strain or isolate": "PR-L63P ERS104pre", "method": "p24", "result": "0.034 µM"}
{"structure": "O=c1[nH]cnc2c1ncn2[C@H]1CC[C@@H](CO)O1", "strain or isolate": "Ba-L Laboratory isolate", "method": "p24", "result": "1.5 µM"}
{"structure": "CC[C@@H](c1ccc(C(F)(F)F)cc1)N1CCN(C2(C)CCN(C(=O)c3c(C)ncnc3C)CC2)C[C@@H]1C", "strain or isolate": "ADA-M Clinical isolates", "result": "<0.021 µM"}
{"structure": "Cc1ccnc2c1NC(=O)c1cccnc1N2C1CC1", "strain or isolate": "SIKA", "method": "cytopathic effect / XTT", "setting": "clinical isolate", "result": "0.2 µM"}
{"structure": "C[C@H](CNC(=S)Nc1ccc(Br)cn1)c1ccccc1", "strain or isolate": "NNRTI-resistant (RT Y181C) A17", "mutations": "RT-Y181C", "method": "p24", "result": "1.18 µM"}
{"structure": "CC(C)(C)OC(=O)N[C@@H](Cc1ccccc1)[C@H](O)CNC[C@@H](O)[C@H](Cc1ccc(OCC(=O)N2CCOCC2)cc1)NC(=O)OC(C)(C)C", "strain or isolate": "A018C", "method": "p24", "result": "0.11 µM"}
{"structure": "Nc1ccn([C@@H]2C[C@@H](F)[C@H](CO)O2)c(=O)n1", "strain or isolate": "LAV", "method": "RT activity", "result": "82 µM"}
{"structure": "Nc1ccn([C@H]2CC[C@@H](CO)O2)c(=O)n1", "strain or isolate": "LAI", "result": "0.15 µM"}
{"structure": "Cc1cn([C@H]2C[C@H](N=[N+]=[N-])[C@@H](CO)O2)c(=O)[nH]c1=O", "strain or isolate": "6 clinical isolates AZT-resistant", "method": "p24", "result": "<1.6 µM"}
{"structure": "C[C@H]1O[C@@H]2OCCC[C@@H]2[C@@H]1OC(=O)N[C@@H](Cc1ccccc1)[C@H](O)CN1C[C@H]2CCCC[C@H]2C[C@H]1C(=O)NC(C)(C)C", "strain or isolate": "MM", "mutations": "PR-L10I K43T M46I I54V L63P A71V V82A L90M Q92K", "method": "p24", "result": ">1 µM"}
{"structure": "C[C@@H](CNC(=S)Nc1ccc(Cl)cn1)c1ccccc1", "strain or isolate": "NNRTI-resistant (RT Y181C K103N) A17V", "mutations": "RT-Y181C K103N", "method": "p24", "result": "0.53 µM"}
{"structure": "Cc1cn([C@@H]2C[C@@H](O)[C@H](CO)O2)c(=O)[nH]c1=O", "strain or isolate": "LAV", "method": "RT activity", "result": ">200 µM"}
{"structure": "C=CCN(C(=O)NCc1ccc(S(=O)(=O)N(C)C)cc1)C1CCN(C[C@H]2CN(C(=O)C3CCCC3)C[C@]2(O)c2ccccc2)CC1", "method": "p24", "result": "<0.005 µM"}
{"structure": "CC(C)CN(C[C@@H](O)[C@H](Cc1ccc(F)cc1)NC(=O)O[C@H]1CCO[C@H]2OCC[C@H]21)S(=O)(=O)c1ccc2nc(NC(C)C)sc2c1", "strain or isolate": "Clinical isolate", "mutations": "L10I K14R L33I M36I M46I F53I K55R I62V L63P A71V G73S V82A L90M I93L", "method": "p24 / luminescence", "setting": "clinical isolate, multidrug-resistant", "result": "0.0032 µM"}
{"structure": "c1cc(CN2CCCNCCNCCCNCC2)ccc1CN1CCCNCCNCCCNCC1", "strain or isolate": "ADA R5", "method": "antigen", "result": ">25 µg/mL"}
{"structure": "CC(C)(C)NC(=O)[C@@H]1CN(Cc2cccnc2)CCN1C[C@@H](O)C[C@@H](Cc1ccccc1)C(=O)N[C@H]1c2ccccc2C[C@H]1O", "strain or isolate": "BR58 (PR L10I K20R M36I/V P63L/S L90M)", "mutations": "PR-L10I K20R M36I/V P63L/S L90M", "method": "p24", "result": "0.005 µM"}
{"structure": "CC(C)CN(C[C@@H](O)[C@H](Cc1cc(F)cc(F)c1)NC(=O)O[C@H]1CCO[C@H]2OCC[C@H]21)S(=O)(=O)c1ccc2nc(NC(C)C)sc2c1", "strain or isolate": "92UG037", "method": "p24 / luminescence", "result": "0.00033 µM"}

Rows are shuffled and stem from different studies. Two numbers with a dash give a range or band.